Construct, isoform or probe ends are uncertain for at least one entry. At least one verdict rests on a figure or table, not on a statement of the authors.
Target: HipB(Lp) (Legionella pneumophila Lp01JK) (UniProt Q5ZSZ8)
Assay: EMSA
Settings: HipB 2.5 nM, DNA 10 nM; recombinant protein; protein details: His6-SBP tag cleaved

By UniProt entry, the sequences of proteins in these tests, tags left out. Where a name states a change or a piece, a line headed by the entry shows the natural chain unless it says otherwise.
UniProt Q5ZSZ8: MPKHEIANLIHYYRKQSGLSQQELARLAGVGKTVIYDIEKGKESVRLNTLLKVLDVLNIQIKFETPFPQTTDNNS

AAGGAAATCAATCAAATTTACCGCCATAACAGTAATTTATGGTGAATTAA (double strand) [upstream 80-130 (O2)]
binding result: binds

TATCATTTTTACTGCTATAACAGTAATATATAATTAATTTTTGGTGTTCC (double strand) [upstream 0-50 (O1)]
binding result: binds

TATTCCCCCCTCAAATTTACCGTGATAACAGTAATTTTTAGGAATTTATA (double strand) [upstream 151-200 (O3)]
binding result: binds
